Measured values taken from the supplement of paper PMC9931576.
Human monoclonal antibodies against the spike receptor-binding domain (heavy:light variable regions). IC50 against pseudoviruses bearing the spike of naturally observed variants; lower = stronger; >10 µg/ml means not reached at the top dose. No active / inactive call. The stated detection limit is 0.0005 µg/ml; values near or below 0.001 µg/ml lie at the floor of the assay.

Experiments:
Assay in all cases: pseudovirus neutralization IC50; higher = weaker neutralization
[1] = target: SARS-CoV-2 Omicron BA.1 spike pseudovirus
Protocol: (§1)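 Single-round VSV luciferase pseudovirus mixed with antibody dilutions for 1 h and put on Huh-7 cells for about a day; IC50 from the dose curve.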

[2] = target: SARS-CoV-2 Omicron BA.2 spike pseudovirus
Protocol: as §1

[3] = target: SARS-CoV-2 Omicron BA.2.75 spike pseudovirus
Protocol: as §1

[4] = target: SARS-CoV-2 Omicron BA.5 spike pseudovirus
Protocol: as §1

[5] = target: SARS-CoV-2 Omicron BQ.1.1 spike pseudovirus
Protocol: as §1

[6] = target: SARS-CoV-2 Omicron XBB spike pseudovirus
Protocol: as §1

[7] = target: SARS-CoV-2 early D614G spike pseudovirus
Protocol: as §1

B1: COV2-2780 (protein)
chain 1: QVQLQQWGAGLLKPSETLSRTCAVYGASFSNYYWSWIRQPPGKGLEWIGEINHSENTNYNPSLKSRVTISVDTSKNQFSLRLSSVTAADTAVYYCARLRYSSSGGHIFDYWGQGTLVTVSS
chain 2: DIQMTQSPSSLSASVGDRVTITCQASQDINNYLNWYQQKSGKAPKLLIYDASNLETGVPSRFSGSGSGTDFTFTINSLQPEDIATYYCQQYDNLPYTFGQGTKLEIK
B1 was tested, and the “pseudovirus neutralization IC50” value [1] was over 10 µg/mL, the “pseudovirus neutralization IC50” value [2] was over 10 µg/mL and the “pseudovirus neutralization IC50” value [3] was over 10 µg/mL. For the same binder, the “pseudovirus neutralization IC50” value [4] was over 10 µg/mL, the “pseudovirus neutralization IC50” value [5] was over 10 µg/mL and the “pseudovirus neutralization IC50” value [6] was over 10 µg/mL. The “pseudovirus neutralization IC50” value [7] was 1.53 µg/mL.

B2: BD56-1590 (protein)
chain 1: EVQLVQSGAEVKKPGESLKISCKGSGYSFTTFWIGWVRQMPGKGLEWMGIIFPGDSDTRYSPSFQGQVTISADKSISTAYLQWRSLKASDTAMYYCARLSDYVGFDPWGQGTLVTVSS
chain 2: SSELTQDPAVSVALGQTIRITCQGDSLRSYYASWYQQKPGQAPVLVIYDKNKRPSGIPDRFSGSSSGNTASLTISGAQAEDEADYYCNSRDNDDNHYVFGTGTKVTVL
In the case of B2, the “pseudovirus neutralization IC50” value [1] is reported as 2.4 µg/mL, the “pseudovirus neutralization IC50” value [2] is reported as 2.43 µg/mL and the “pseudovirus neutralization IC50” value [3] is reported as 1.37 µg/mL. For the same binder, the “pseudovirus neutralization IC50” value [4] was 1.31 µg/mL, the “pseudovirus neutralization IC50” value [5] was 2.35 µg/mL and the “pseudovirus neutralization IC50” value [6] was 3.48 µg/mL. For the same binder, the “pseudovirus neutralization IC50” value [7] was 2.04 µg/mL.

B3: BD56-1583 (protein)
chain 1: QLLLQESGPGLVKPSETLSLTCTVSGASINTGSYYWAWIRQPPGKGLEWIGSLYYTVKTFYNPSLKSRVTMSVDTSKNHFSLRLSSVTAADTALYYCARLVIRFTYYFDSWGQGTVVTVSS
chain 2: QSALTQPASVSGSPGQSITISCSGTSNDVGTYNLVSWYQHHPGKAPKLMIYEGNKRPSGVSDRFSGSKSGNTASLTISGLQAEDEADYFCCSFGDTNTPVVFGGGTKVTVL
With B3 the “pseudovirus neutralization IC50” value [1] was over 10 µg/mL, the “pseudovirus neutralization IC50” value [2] was over 10 µg/mL and the “pseudovirus neutralization IC50” value [3] was over 10 µg/mL. The “pseudovirus neutralization IC50” value [4] was over 10 µg/mL, the “pseudovirus neutralization IC50” value [5] was over 10 µg/mL and the “pseudovirus neutralization IC50” value [6] was over 10 µg/mL. For the same binder, the “pseudovirus neutralization IC50” value [7] was over 10 µg/mL.

B4: BD56-1603 (protein)
chain 1: EVQLVQSGAEVKKPGESLKISCKVSGYSFISYWIGWVRQMPGKGLEWMGIIYPGDSDTTYSPSFQGLVTFSADKSITTAYLQWSSLRASDTAMYYCARHVTYGSGYYADYWGQGTLVTVSS
chain 2: EIVLTQSPGTLSLSPGERATLSCRASQSVGSSYLAWYQQKPGQAPRLLIYSASSRATGIPDRFSGSGSGTDFTLTISRLEPEDFAVYYCQQYGNSPLIAFGPGTKVDIK
With B4 the “pseudovirus neutralization IC50” value [1] was over 10 µg/mL, the “pseudovirus neutralization IC50” value [2] was over 10 µg/mL and the “pseudovirus neutralization IC50” value [3] was over 10 µg/mL. For the same binder, the “pseudovirus neutralization IC50” value [4] was over 10 µg/mL, the “pseudovirus neutralization IC50” value [5] was over 10 µg/mL and the “pseudovirus neutralization IC50” value [6] was over 10 µg/mL. The “pseudovirus neutralization IC50” value [7] was over 10 µg/mL.

B5: BD56-1596 (protein)
chain 1: QAQLVQSGAALKKPGSSVKVSCKASGGTFSSYSISWVRQAPGQGLEWMGGIIPMLGSTKYEQKFQGRVTITADKSTSTAYMDLSSLRFDDSAVYYCARELGYSGMGSNWYFDLWGRGTLVTVSS
chain 2: QSVLTQPPSVSGAPGQRVTISCTGSNSNIGAGYDVHWYQQLPGTAPKLLIYANNNRPSGVPDRFSGSKSGTSASLAITGLQAEDEADYYCQSYDSSLSGSVFGGGTKLTVL
In the case of B5, the “pseudovirus neutralization IC50” value [1] is reported as 0.254 µg/mL, the “pseudovirus neutralization IC50” value [2] is reported as 0.24 µg/mL and the “pseudovirus neutralization IC50” value [3] is reported as 0.105 µg/mL. The “pseudovirus neutralization IC50” value [4] was 2.73 µg/mL, the “pseudovirus neutralization IC50” value [5] was 4.15 µg/mL and the “pseudovirus neutralization IC50” value [6] was 3.44 µg/mL. For the same binder, the “pseudovirus neutralization IC50” value [7] was 0.77 µg/mL.

B6: BD56-1570 (protein)
chain 1: QVQLQQWGAGLLKPSETLTLTCGVSGGSFSGYYWSWVRQPPGKGLEWIGEINQSGSTNYNPSLKSRVTLSVDTSKDQFSLKLTSVTAADTAVYYCARLPQANYYYSYYDLDVWGRGTTVTVSS
chain 2: DIVMTQSPDSLAVSLGERATINCKSSQSILYSSNNKNYLAWYQQRPGQPPKLLFYWASIRESGVPDRFSGSGSGTDFTLTISSLQAADVALYFCQQYYDSPWTFGQGTKVEIK
B6 was tested, and the “pseudovirus neutralization IC50” value [1] was over 10 µg/mL, the “pseudovirus neutralization IC50” value [2] was over 10 µg/mL and the “pseudovirus neutralization IC50” value [3] was over 10 µg/mL. The “pseudovirus neutralization IC50” value [4] was over 10 µg/mL, the “pseudovirus neutralization IC50” value [5] was over 10 µg/mL and the “pseudovirus neutralization IC50” value [6] was over 10 µg/mL. The “pseudovirus neutralization IC50” value [7] was over 10 µg/mL.
